Source: PubChem BioAssay AID624099 (ICCB-Longwood, 2012)
Aim: 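Knock-downs relieving repression by E2 of an HPV18 LCR luciferase reporter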 (primary screen). Cells: human C33A cervical carcinoma cells (HPV-negative) stably expressing BPV1 E2 and an HPV18 LCR luciferase reporter. Knock-down reagent: siRNA pool against human genes, 40 nM. Timing: 72 h. Detection: 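Per-well luciferase luminescence, z-scored on each plate against the plate mean and SD with control wells left out, then averaged across three replicate plates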. Scale: mean z-score and z-score: higher = stronger reporter signal, weaker E2 silencing. Hit rule: 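Mean z ≥ 2 together with z ≥ 2 in two or more of the three replicates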.
The deposit covers about 21,000 reagents; below is a random part of them. 497 of all reagents (2.4%) were called active. 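Higher z means weaker E2 silencing; only reporter increases were scored, and knock-downs that hurt cell survival may mask genuine repressor factors.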

gene symbol	mean z-score	z-score, replicate A	z-score, replicate B	z-score, replicate C	Outcome
SLC25A51 (GeneID 92014)	0.08	0.25	0.3	-0.3	inactive
SST (GeneID 6750)	-1.28	-1.22	-1.31	-1.31	inactive
FAM110B (GeneID 90362)	-1.39	-1.45	-1.16	-1.57	inactive
MIR9-1HG (GeneID 10485)	0.2	0.38	0.12	0.09	inactive
C10orf95 (GeneID 79946)	-3	-2.82	-3.4	-2.78	inactive
TMEM68 (GeneID 137695)	-0.39	-0.47	-0.02	-0.68	inactive
IARS1 (GeneID 3376)	-1.41	-1.08	-1.62	-1.54	inactive
ARHGAP9 (GeneID 64333)	-1.34	-1.32	-1.23	-1.46	inactive
HNRNPLL (GeneID 92906)	0.87	0.85	0.84	0.93	inactive
OR1E2 (GeneID 8388)	0.04	-0.03	0.07	0.1	inactive
CYTIP (GeneID 9595)	-0.6	-0.53	-0.78	-0.49	inactive
GAL3ST2 (GeneID 64090)	-0.19	-0.44	-0.22	0.07	inactive
AGXT2 (GeneID 64902)	-0.59	-0.52	-0.3	-0.96	inactive
ANKRD2 (GeneID 26287)	0.42	0.53	0.33	0.4	inactive
NHLRC4 (GeneID 283948)	0.37	0.38	0.61	0.11	inactive
UAP1 (GeneID 6675)	1.23	1.51	0.98	1.19	inactive
CFAP77 (GeneID 389799)	1.27	1.28	1.48	1.05	inactive
GSTP1 (GeneID 2950)	0.63	0.55	0.75	0.58	inactive
SGF29 (GeneID 112869)	0	-0.07	-0.04	0.12	inactive
ZZEF1 (GeneID 23140)	-0.11	-0.35	0.03	0	inactive
GPM6A (GeneID 2823)	0.19	0.33	0.34	-0.11	inactive
SEC13 (GeneID 6396)	0.08	0.11	-0.23	0.37	inactive

Targets above whose target name starts with C or c:
gene symbol	mean z-score	z-score, replicate A	z-score, replicate B	z-score, replicate C	Outcome
C10orf95 (GeneID 79946)	-3	-2.82	-3.4	-2.78	inactive
CYTIP (GeneID 9595)	-0.6	-0.53	-0.78	-0.49	inactive
CFAP77 (GeneID 389799)	1.27	1.28	1.48	1.05	inactive

Additional records:
gene symbol	mean z-score	z-score, replicate A	z-score, replicate B	z-score, replicate C	Outcome
CREBRF (GeneID 153222)	0.02	-0.38	0.11	0.33	inactive
NT5M (GeneID 56953)	-1.64	-1.5	-1.6	-1.83	inactive
GSR (GeneID 2936)	1.33	2.12	1.11	0.75	inactive
PDZK1IP1 (GeneID 10158)	-0.53	-0.78	-0.49	-0.31	inactive
ALDH6A1 (GeneID 4329)	0.42	0.07	0.79	0.38	inactive
EIF4EBP3 (GeneID 8637)	-0.78	-0.73	-0.7	-0.9	inactive
GML (GeneID 2765)	1.44	1.55	1.36	1.41	inactive
KRABD4 (GeneID 55634)	0.34	0.55	0.32	0.16	inactive
ADAMTS7 (GeneID 11173)	-1.4	-0.93	-1.64	-1.64	inactive
PAAF1 (GeneID 80227)	-0.11	-0.08	-0.32	0.09	inactive
ADO (GeneID 84890)	0.58	0.35	0.53	0.85	inactive
FAM182B (GeneID 728882)	1.89	1.94	2.23	1.51	inactive
KLF13 (GeneID 51621)	-0.74	-0.91	-0.74	-0.57	inactive
LY6G6F (GeneID 259215)	-0.07	0.18	0.12	-0.51	inactive
BCORP1 (GeneID 286554)	0.65	0.5	0.77	0.69	inactive
GJD3 (GeneID 125111)	0.35	0.3	0.42	0.32	inactive
PITPNB (GeneID 23760)	0.34	0.16	0.37	0.5	inactive
DRC3 (GeneID 83450)	0.23	0.32	-0.08	0.45	inactive
YBX1 (GeneID 4904)	-1.1	-1.02	-1.34	-0.93	inactive
PAK5 (GeneID 57144)	-1.19	-1.09	-1.36	-1.13	inactive
HPSE (GeneID 10855)	-1	-1.03	-0.94	-1.01	inactive
VAX2 (GeneID 25806)	1.09	0.91	1.2	1.15	inactive
MLLT11 (GeneID 10962)	1.52	1.58	1.26	1.74	inactive
HIGD2A (GeneID 192286)	2.48	2.74	2.72	1.97	active
CATSPER2 (GeneID 117155)	0.86	1.06	0.93	0.6	inactive
NDUFAB1 (GeneID 4706)	-1.7	-1.78	-1.62	-1.68	inactive
NLGN4Y (GeneID 22829)	0.61	0.39	0.94	0.51	inactive
PALMD (GeneID 54873)	1.81	1.6	1.9	1.94	inactive
NCK2 (GeneID 8440)	0.02	-0.19	0.08	0.17	inactive
LINC00649 (GeneID 100506334)	0.42	0.17	0.32	0.76	inactive
FXYD5 (GeneID 53827)	-0.19	0.22	-0.01	-0.78	inactive
SLC39A6 (GeneID 25800)	0.59	0.55	0.61	0.61	inactive
SPC25 (GeneID 57405)	-0.94	-0.98	-1.05	-0.79	inactive
FRMD3 (GeneID 257019)	-0.14	0.33	-0.22	-0.53	inactive
OPRPN (GeneID 58503)	0.29	0.86	0.25	-0.26	inactive
